Tested on: HA of H3N2
Type: binding, Influenza A virus H3N2 (Aic68, Fuk85)

B1: F005-126: human IgG antibody broadly neutralizing H3N2 viruses; heavy chain SEQ ID NO: 2, light chain SEQ ID NO: 13 (antibody)
heavy: QVQLVQSGAEVKKPGASVTVSCQVSGYTLTSYGLSWVRQAPGQGLEWVGWINTYDGQTKYVKKFQGRVTMTTHTGTNTAYMEMKSLRSDDTAVYYCARVEGVRGVMGFHYYPMDVWGQGTMVTVSSASTKGPSVFPLAPSSKSTSGGTAALGCLVKDYFPEPVTVSWNSGALTSGVHTFPAVLQSSGLYSLSSVVTVPSSSLGTQTYICNVNHKPSNTKVDKKV[not shown - human IgG1 Fc with changes]
light: QSVLTQPPSVSGAPGQRVTISCTGSSSNIGAGYAVHWYQQLPGTAPKLLISGNSNRPSGVPDRFSGSKSGTSASLAITGLQAEDEADYYCQSYDSSLSGSVFGGGTKLTVLGQPKAAPSVTLFPPSSEELQANKATLVCLISDFYPGAVTVAWKADSSPVKAGVETTTPSKQSNNKYAASSYLSLTPEQWKSHRSYSCQVHEGSTVEKTVAPTECSARQ
- reactivity to mutant Aic68HA/N285Y versus wild HA: weaker than that of wild HA
